From US20230357367A1 (GENERATE BIOMEDICINES, published 2023)

Target: WIV1 spike trimer (recombinant, in-house production) (WIV1 (bat SARS-like coronavirus))
Assay: DELFIA, IgG titrated on coated spike trimer

B1: AB-1 (antibody, V domains shown)
VH: EVQLVESGAEVKKPGESLKISCKGSGYTFTRYWIGWVRQMPGKGLEWMGIIYPGDSDVRYSPSFQGHVTISADKSISTAYLQWNSLKASDTAMYYCARLPQYCSKGVCYRWFDPWGQGTLVTVSS
VL: EIVLTQSPSSVSASVGDRVTITCRASQGISSWLAWYQQKPGKAPKLLIYAASSLQSGVPSRFSGSGSGTDFTLTISSLQPEDFATYYCQQGHSFPYTFGQGTNLEIK
Q: How did the EC50 turn out when B1 was run?
A: 0.061 mg/L
